# The exact form of at least one protein or probe is not confirmed.
# Biological target: poly-SUMOylated SARS2-NP WT (SARS-CoV-2) (UniProt P0DTC9)
# Assay: MST
# Details: MST: PBS with 0.05% Tween, room temperature, recombinant protein, protein details: Flag, poly-His-SUMO3 conjugated
sequence,measurement,value
CACUCGCUAUGUCGAUAACAACUUCUGUGGCCCUGAUGGCUACCCUCUUGAGUGCAUUAAAGA [Cy5-RNA (SARS-CoV-2 RNA)],Kd,590 pM
same,binding result,binds

# Reference: paper PMC10764958
